For this experiment, the target named is HIV-1 CA N-terminal domain (CA^N) mutant M66F (HIV-1). Kind of experiment: ITC; CPSF6_(313–327) (10 mM) in the syringe, CA^N (600 µM) in the cell; 50 mM potassium phosphate (pH 7.4), 100 mM NaCl, 1 mM DTT; MicroCal ITC-200. For orientation: ITC needs no label: the signal is the heat of the interaction.

The source of these data is article PMC3431306.

In turn, “CPSF6_(313–327) peptide (cleavage and polyadenylation specific factor 6, residues 313–327) (from UniProt Q16630-2 313-327)” registered a fold reduction of affinity against wild type HIV-1 CA^N of 7 fold.
